A mixed list of measured activities; the numbers were collected in NIAID ChemDB.

All rows: growth or infection tests; species: Herpes simplex virus 2; cells: PRK; read by: cytopathic effect; measure: EC50

Rows are shuffled and stem from different studies.

compound,strain or isolate,result
O=c1[nH]c(=O)n([C@H]2C[C@H](O)[C@@H](CO)O2)cc1I,LYONS,0.2 µg/mL
Nc1nc2c(ncn2COCCO)c(=O)[nH]1,196,0.07 µg/mL
CSCc1cn([C@H]2C[C@H](O)[C@@H](CO)O2)c(=O)[nH]c1=O,VCX301,4 µg/mL
O=c1[nH]c(=O)n([C@@H]2C[C@H](CO)[C@@H](O)C2)cc1I,G,10 µg/mL
CCc1cn([C@H]2C[C@H](O)[C@@H](CO)O2)c(=O)[nH]c1=O,G,4 µg/mL
Nc1nc(=O)n([C@H]2C[C@H](O)[C@@H](CO)O2)cc1/C=C/Cl,LYONS,15 µg/mL
O=c1[nH]c(=O)n([C@H]2C[C@H](O)[C@@H](CO)O2)cc1CCCl,LYONS,0.55 µg/mL
[N-]=[N+]=NCc1cn([C@H]2C[C@H](O)[C@@H](CO)O2)c(=O)[nH]c1=O,LYONS,7 µg/mL
Nc1ncnc2c1ncn2C[C@H](O)CO,196,>400 µg/mL
Nc1nc2c(ncn2COCCOP(=O)(O)O[C@@H]2[C@H](O)[C@@H](COP(=O)(O)O[C@@H]3[C@H](O)[C@@H](CO)O[C@H]3n3cnc4c(N)ncnc43)O[C@H]2n2cnc3c(N)ncnc32)c(=O)[nH]1,G,0.2 µg/mL
Nc1nc(=O)n(C2CC(O)C(CO)O2)cc1CCCl,196,8.5 µg/mL
O=c1[nH]c(=O)n([C@H]2C[C@H](O)[C@@H](CO)O2)cc1/C=C\Cl,G,20 µg/mL
O=c1[nH]c(=O)n([C@H]2C[C@H](O)[C@@H](CO)O2)cc1/C=C/Br,196,7 µg/mL
O=Cc1cn([C@H]2C[C@H](O)[C@@H](CO)O2)c(=O)[nH]c1=O,VCX304,1 µg/mL
O=c1[nH]c(=O)n([C@H]2C[C@H](O)[C@@H](CO)O2)cc1I,196,1 µg/mL
O=c1[nH]c(=O)n([C@H]2C[C@H](O)[C@@H](CO)O2)cc1/C=C/Br,G,2 µg/mL
Nc1ncnc2c1ncn2[C@@H]1O[C@H](CO)[C@@H](O)[C@H]1OP(=O)(O)OC[C@H]1O[C@@H](n2cnc3c(N)ncnc32)[C@H](OP(=O)(O)OC[C@H]2O[C@@H](n3cc(/C=C/Br)c(=O)[nH]c3=O)C[C@@H]2O)[C@@H]1O,G,7 µg/mL
O=c1[nH]c(=O)n([C@H]2CC[C@@H](CO)O2)cc1/C=C/Br,196,1.5 µg/mL
CCCc1cn([C@H]2C[C@H](O)[C@@H](CO)O2)c(=O)[nH]c1=O,G,9.3 µg/mL
O=c1[nH]c(=O)n([C@H]2C[C@H](O)[C@@H](CO)O2)cc1I,196,0.2 µg/mL
CCc1cn([C@H]2C[C@H](O)[C@@H](CO)O2)c(=O)[nH]c1=O,LYONS,2 µg/mL
O=c1[nH]c(=O)n([C@H]2C[C@H](O)[C@@H](COP(=O)(O)O)O2)cc1/C=C/c1ccccc1,196,70 µg/mL
O=c1[nH]c(=O)n(C2CC(O)C(CO)O2)cc1CCCCl,G,8 µg/mL

Repeating the first 2 entries:

compound	strain or isolate	result
O=c1[nH]c(=O)n([C@H]2C[C@H](O)[C@@H](CO)O2)cc1I	LYONS	0.2 µg/mL
Nc1nc2c(ncn2COCCO)c(=O)[nH]1	196	0.07 µg/mL

ECn: concentration that inhibits the pathogen or its effect by n%.